The target in the assay is NS4A-2K-NS4B-HA mutant CS P1’Ile (NS4A-2K cleavage site blocked) (DENV (strain not stated for this construct)). Nature of the assay: co-IP.

As to “DENV NS2B/NS3 protease/helicase complex (active protease), stably expressed (from UniProt P29990)”, the EC50 of the small molecule JNJ-A07 for reducing this co-precipitation amounted to 3.3 nM.
